The values that follow come from paper PMC10819331.

Construct, isoform or probe ends are uncertain for at least one entry.

The test system of this data set is MBP-Z3495 (LysR-type regulator). Put plainly: EMSA. As to conditions: 0-4 uM protein; recombinant protein; protein details: N-terminal MBP (pMal-c5X); probe letters rebuilt from the primers and the genome.

With “AGCATGAGTGCTACTAAACAGATCGGTAAAGCACGCATAGTATTTCCTCAATGTATGATCAAAACGTCAATATTGAATCAGGAGCTTGTAAAAATGACAAGACGGGCAAGCGCCCGTCCTGAATGATATTACAAATTGTGGAAACAGCCTAAAAATTACCAGCCTTTAACAGCGCCGCCGTTAAACACTTTGTTTGCTGCTTCGTAAACTTCGTCAGACTGATAAGCCTGGACGAATTTCTTCACGTTCTCGGCGTCTTTGTTATCTTCACGCGTTACGATCAGGTTTACGTACGGGGAGTCTTTATCTTCGACAAAGATACC (double strand) [rcsF promoter]”, the binding result is “binds”.
